Values quoted from earlier work, collected in US20160331779A1 (priority 2015, published 2016).

Tested on: Aspergillus flavus
Conditions: cited from earlier work

## [Na+].[O-]Cl [hypochlorite, sodium hypochlorite]
  NaOCl concentration at which cultures of Aspergillus flavus and aflatoxins were destroyed: 7 mM
